Measured values from several laboratories, pooled; numbers as filed in NIAID ChemDB.

All rows: whole-cell or culture tests; organism: HIV-1; read by: RT activity; read-out: inhibition

Neighbouring rows are from separate reports.

SMILES | conditions | dose | cell line | strain | result
OCC(S)CS |  | 5 µg/mL | H9 | IIIB-C-3 | 90%
NC(=O)c1ncn([C@@H]2O[C@H](CO)[C@@H](O)[C@H]2O)c1N | 16 h | 250 µM | CEM + CEM-SS | IIIB | 25%
CCN(CCO)CCCC(C)Nc1ccnc2cc(Cl)ccc12 |  | 10 µg/mL | CEM | IIIB | 20%
O=C(O)P(=O)(O)O | 6 d | 64 µM | PBL | IIIB | 96%
Cc1ccnc2c1NC(=O)c1cccnc1N2C1CC1 |  | 0.3 µM | PBL (resting) + PBL | IIIB | 88%
Cc1cn([C@H]2C[C@H](N=[N+]=[N-])[C@@H](CO)O2)c(=O)[nH]c1=O |  | 2.5 µg/mL | PBMC | UCD123 | 95%
CCCCCCCCCCCCCCCCO[C@H](CCl)COP(=O)(O)OCC[N+](C)(C)C |  | 3 µM | H9 | IIIB | 86%
Nc1nc(=O)n([C@H]2C[C@H](O)[C@@H](CO)O2)cc1-c1ccccn1 |  | 10 µg/mL | H9 | IIIB | 13%
COc1ccccc1CN[C@H]1C2CCN(CC2)[C@H]1C(c1ccccc1)c1ccccc1 |  | 0.1 µM | Macrophage + Monocytes/macrophages | ADA R5 isolate | 70%
C[C@@H]1[C@H](O)[C@@H](C)/C=C/C=C/CC/C=C/C=C/C=C/C=C/C(O[C@H]2O[C@H](C)[C@@H](O)[C@H](N)[C@@H]2O)CC2O[C@](O)(CC(O)C(O)CCC(O)CC(O)CC(O)CC(=O)O[C@H]1C)CC(O)C2C(=O)O |  | 10 µg/mL | H9 |  | 95%
Nc1ccn([C@@H]2CS[C@H](CO)O2)c(=O)n1 |  | 5 µM | PBL (activated) + PBL | SF162 R5 | 100%
COCCNC(=O)[C@@H](NC(=O)[C@H](Cc1ccc(OC)c(OC)c1OC)C[C@H](O)[C@H](Cc1ccccc1)NC(=O)OC(C)(C)C)C(C)C |  | 0.03 µM | MT-2 | MN | 100%
CCOC(=O)[C@@H]1CSC(=O)N1C(=O)CC[C@H](N)C(=O)O |  | 2000 µM | Macrophage + Monocytes/macrophages | BaL | 63%
COc1cc(C[C@@](O)(C(N)=O)[C@H](CO)Cc2ccc(OC)c(OC)c2)ccc1O |  | 1.8 µM | H9 | IIIB | 89%
Cc1cn([C@H]2C[C@H](N=[N+]=[N-])[C@@H](COP(=O)(O)OC[C@H]3OC(O)[C@@H](O)[C@@H](O)[C@@H]3O)O2)c(=O)[nH]c1=O | 7 d | 25 µM | CEM | LAV-Bru | 95%
CC[C@@]1(O)C(=O)OCc2c1cc1n(c2=O)Cc2cc3ccccc3nc2-1 |  | 0.05 µM | H9 | IIIB | 96%
COc1ccc(C[C@H]2COC(=O)[C@@H]2Cc2ccc(O[C@@H]3O[C@H](CO)[C@@H](O)[C@H](O)[C@H]3O)c(OC)c2)cc1OC |  | 5 µM | H9 | IIIB | 86%
Nc1ccn([C@H]2C=C[C@@H](CO)O2)c(=O)n1 |  | 0.1 µM | PBMC | LAV | 73.3%
NNC(=O)NN1C(=O)c2cc(S(=O)(=O)[O-])cc3c(N)c(S(=O)(=O)[O-])cc(c23)C1=O |  | 1740 µM |  | LAV | 0%
CCc1cn([C@H]2C[C@H](N=[N+]=[N-])[C@@H](CO)O2)c(=O)[nH]c1=O |  | 0.1 µM | PBMC | LAV | 99.8%
O[C@H]1OC[C@H](Cc2ccc3c(c2)OCO3)[C@H]1Cc1ccc2c(c1)OCO2 |  | 12.7 µM | H9 | IIIB | 97%
Nc1nc(Cl)nc2c1ncn2[C@H]1C=C[C@@H](CO)O1 |  | 20 µM | C8166 | HXBc2 | 75%
COc1ccc(Cc2nccc3cc(OC)c(OC)cc23)cc1OC |  | 10 µg/mL | PBMC | IIIB | 62.1%
Nc1ccn([C@@H]2C[Se][C@H](CO)O2)c(=O)n1 |  | 0.95 µM | PBMC | BRU | 90%
CCCCCCc1ccsc1-c1cn([C@@H]2C[C@H](OC(=O)c3ccc(C)cc3)[C@@H](COC(=O)c3ccc(C)cc3)O2)c(=O)[nH]c1=O |  | 1 µg/mL | H9 | IIIB | 65%
C=C(C)[C@@H]1CC[C@]2(C(=O)NCCCCCCCC(=O)N[C@@H](CC(C)C)[C@H](O)CC(=O)O)CC[C@]3(C)[C@H](CC[C@@H]4[C@@]5(C)CC[C@H](O)C(C)(C)[C@@H]5CC[C@]43C)[C@@H]12 |  | 2.65 µM | PBMC | QZ4734 | 90%
CCCOCCCCCCCCCC(=O)O |  | 100 µM | H9 |  | 85%
N[C@@H](CCC(=O)N[C@@H](CS)C(=O)NCC(=O)O)C(=O)O |  | 1838 µM | H9(HIV-1(IIIB)) + H9 | IIIB | 0%
Cc1cn([C@H]2C[C@H](N=[N+]=[N-])[C@@H](CO)O2)c(=O)[nH]c1=O | 14 d | 0.2 µM | U-937 | LAV-Bru | 0%
N[C@@H](CCC(=O)N1C(=O)SC[C@H]1C(=O)NCC(=O)O)C(=O)O |  | 2000 µM | Macrophage + Monocytes/macrophages | BaL | 0%
CCCCCCc1ccsc1-c1cn([C@@H]2C[C@H](O)[C@@H](CO)O2)c(=O)[nH]c1=O |  | 10 µg/mL | H9 | IIIB | 17%
COc1cc([C@@H]2c3cc4c(cc3[C@H](O)[C@H]3COC(=O)[C@H]23)OCO4)cc(OC)c1OC |  | 0.007 µM | H9 | IIIB | 74%
Nc1ncnc2c1ncn2[C@H]1CC[C@@H](CO)O1 | 5 d | 0.08 µM | CEM + CEM-SS | IIIB | 50%
Cc1cn([C@H]2C[C@H](N=[N+]=[N-])[C@@H](CO)O2)c(=O)[nH]c1=O |  | 0.0312 µM | MT-4 | IIIB | 84.2%
CCCCCCCCCC(=O)O |  | 100 µM | H9 |  | 20%
Cc1ccc(C(=O)OC[C@H]2O[C@H](n3cc(-c4sccc4C)c(=O)[nH]c3=O)C[C@@H]2OC(=O)c2ccc(C)cc2)cc1 |  | 1 µg/mL | H9 | IIIB | 60%
Cc1cn([C@H]2C[C@H](N=[N+]=[N-])[C@@H](CO)O2)c(=O)[nH]c1=O |  | 5 µM | H9 |  | 95%
CCc1c(C)[nH]c(=O)c([N+](=O)[O-])c1Sc1cc(C)cc(C)c1 |  | 1 µM |  | Isolated virion | 99%
Nc1nc(=O)n([C@H]2C[C@H](O)[C@@H](CO)O2)cc1-c1ccccc1 |  | 10 µg/mL | H9 | IIIB | 35%
Nc1c(S(=O)(=O)[O-])cc2c3c(cc(S(=O)(=O)[O-])cc13)C(=O)N(NC(=O)N/N=C\c1cccc(C=O)c1)C2=O.[Na+].[Na+] |  | 1760 µM |  | LAV | 40%
Cc1cn([C@H]2C[C@H](N=[N+]=[N-])[C@@H](COC(=O)OCCCCCCOC3O[C@H](CO)[C@@H](O)[C@H](O)[C@@H]3O)O2)c(=O)[nH]c1=O |  | 20 µg/mL | CEM-113 + CEM/C113 |  | 0%
Cc1cn([C@H]2C[C@H](F)[C@@H](CO)O2)c(=O)[nH]c1=O |  | 0.026 µM | MT-4 | 121-2(PRE-AZT) | 95%
CCCCCCCCCCCCCCCCOP(=O)(OC[C@H]1OC(O)[C@H](O)[C@@H](O)[C@@H]1O)OC[C@H]1O[C@@H](n2cc(C)c(=O)[nH]c2=O)C[C@@H]1N=[N+]=[N-] | 7 d | 0.2 µM | U-937 | LAV-Bru | 0%
Cc1cn([C@H]2C[C@H](N=[N+]=[N-])[C@@H](CO)O2)c(=O)[nH]c1=O |  | 0.03 µM | PBMC | LAV | 90%
O=C(O)c1nn(Cc2ccc(Cl)cc2Cl)c2ccccc12 |  | 100 µM | C8166 |  | 76%
OO |  | 10 µM | PBMC | BaL | 10%
CCCCN1C[C@H](O)[C@@H](O)[C@H](O)[C@H]1CO |  | 200 µM | H9 |  | 90%
O=C1N[C@H](C(=O)O)CS1 |  | 2000 µM | Macrophage + Monocytes/macrophages | BaL | 63%
O=C(O)P(=O)(O)O |  | 680 µM | H9 | III | 100%
Nc1nc(=O)n([C@@H]2C[C@H](O)[C@@H](CO)O2)cc1-c1nccs1 |  | 10 µg/mL | H9 | IIIB | 13%
O=C(O)P(=O)(O)O |  | 50 µg/mL | H9 |  | 86%
CC(C)(C)NC(=O)[C@@H]1CN(Cc2cccnc2)CCN1C[C@@H](O)C[C@@H](Cc1ccccc1)C(=O)N[C@H]1c2ccccc2C[C@H]1O | 10 d | 0.1 µM | CEM + CEM-SS |  | 100%
O=Nc1c(-c2c(O)[nH]c3ccccc23)[nH]c2ccccc12 | 28 d | 1 µM | MDM | SF162 | 57.6%
OCCN1CCN(CC/C=C2\c3ccccc3Sc3ccc(C(F)(F)F)cc32)CC1 |  | 10 µg/mL | MOLT-3 | IIIB | 67%
COC(=O)CNC(=O)[C@H](CS)NC(=O)CC[C@H](N)C(=O)O |  | 1000 µM | U1 (HIV-1 LAV PMA stimulated) + U1 | LAV | 23%

An empty or dashed field is not shown. Percent inhibition refers to the dose given; in toxicity tests it is the harm to the cells.